Legend:
Vero cell line = experiment: Cytotoxicity evaluation on Vero cell line (MTT); format: cell-based; conditions: VERO CC50 / anti-Mtb MIC
Procedure: (§1) The biological activity of the compounds of the present invention were evaluated. The activity against mycobacteria (Mtb) was assessed by minimum inhibitory concentration values (MIC, µM) determination. The selectivity index (SI) is defined as: SI = (CC50)/(MIC) [formula] wherein CC50 refers to the half maximal cytotoxic concentration of compounds towards particular eukaryotic cells, either for HCT116 cells and/or VERO cells; MIC refers to the minimum inhibitory concentration of the compounds towards mycobacteria.
Cytotoxicity evaluation of the tested molecules by MTT assay was performed on the Vero cell line. Briefly, cells (5.10^4 cells/mL) in 100 µL of complete medium [MEM supplemented with 10% fetal calf serum (FCS), 2 mM L-glutamine and antibiotics (100U/mL penicillin and 100 µg/mL streptomycin)] were seeded into each well of 96-well plates and incubated at 37 °C in a humidified 5% CO2 with 95% air atmosphere. After a 24 h incubation, 100 µL of medium with various product concentrations and appropriate controls were added and the plates were incubated for 72 h at 37 °C. Each plate-well was then microscope-examined for detecting possible precipitate formation before the medium was aspirated from the wells. 100 µL of MTT solution (0.5 mg/mL in complete MEM) were then added to each well. Cells were incubated for 1 h at 37 °C and the MTT solution was then removed, and DMSO (100 µL/well) was added to dissolve the resulting formazan crystals. Plates were shaken vigorously (300 rpm) for 5 min. The absorbance was measured at 570 nm with a microplate spectrophotometer (BIOTEK Eon). DMSO was used as blank and SDS as positive control. CC50 were calculated by non-linear regression analysis processed on dose-response curves, using TableCurve 2D V5 software.

[1] = tested on: Human HCT-116 colon cancer cells; experiment: Cytotoxicity evaluation on HCT-116 cell line (SRB); format: cell-based; conditions: HCT116 CC50 / anti-Mtb MIC
Procedure: as §1
Human HCT-116 colon cancer cells were seeded in 96-well plates (2500 cells/well) 24 hours before being treated for 72 hours with the tested compounds. Cells were grown and treated in DMEM 10% FBS. For each compound, 11 concentrations, corresponding to twofold serial dilutions from the maximum concentration, were evaluated, with each concentration tested in duplicate. DMSO was set at 0.5% final concentration in each well, including in the untreated conditions. At the end of the treatment, cells were fixed 1 hour at 4°C by addition of cold 10 % trichloroacetic acid to a final 3.33 % concentration, then washed 4 times with water. The plates were dried and the cells stained for 30 minutes with 0.057 % (wt/vol) Sulforhodamine B (SRB) in 1% acetic acid, then washed 4 times with 1% acetic acid and dried. The dye was resuspended by a 1 h 30 incubation in 200 µL of 10 mM Tris-base and the absorbance at 490 nm measured with a plate reader (µquant, Bio-tek). For normalization, the background value was subtracted to each value, the duplicates averaged and the untreated condition set to 100% cell viability. CC50 were computed from at least three independent experiments using the GraphPad Prism software using a non-linear regression to a four-parameter logistic curve (log[inhibitor] vs response; variable slope).

Row | SMILES | SI (CC50/MIC) (Vero cell line) | SI (CC50/MIC) [1]
1 | CCCCCCCCCCCC(O)C#CCO (racemic) [Compound 1, Pentadec-2-yne-1,4-diol] | 71 (VERO) | 48 (HCT116)
2 | CCCCCCCCCCCCC#CCO [Comparative example A, reference compound] | 37 (VERO) | 24 (HCT116)
3 | C=CC(O)C#CC(O)CCCCCCCCCCC (centres unmarked) [Compound 2, Heptadec-1-en-4-yne-3,6-diol] | 6 (VERO) | 1.6 (HCT116)
4 | C=C=CC(O)C#CC(O)CCCCCCCCCCC (centres unmarked) [Compound 3, Octadeca-1,2-dien-5-yne-4,7-diol] | 3.2 (VERO) | 3.6 (HCT116)
5 | C#CC(O)C#CC(O)CCCCCCCCCCC (centres unmarked) [Compound 4, Heptadeca-1,4-diyne-3,6-diol] | 8 (VERO) | 13 (HCT116)
6 | CCCCCCCCCCCC(O)C#CC(O)c1ccccc1 (centres unmarked) [Compound 5, 1-Phenylpentadec-2-yne-1,4-diol] | 37 (VERO) | 40 (HCT116)
7 | CCCCCCCCCCCC(O)C#CC(O)CC (centres unmarked) [Compound 6, Heptadec-4-yne-3,6-diol] | 17 (VERO) | 
8 | CCCCCCCCCCCC(O)C#CC(O)C1CC1 (centres unmarked) [Compound 7, 1-Cyclopropylpentadec-2-yne-1,4-diol] | 146 (VERO) | 
9 | CCCCCCCCCCCC(O)C#CC(O)C(C)(C)C (centres unmarked) [Compound 8, 2,2-Dimethylheptadec-4-yne-3,6-diol] |  | 4 (HCT116)
10 | CCCCCCCCCCCC(O)C#CC(O)C(CC)CC (centres unmarked) [Compound 9, 3-Ethyloctadec-5-yne-4,7-diol] |  | 4 (HCT116)
11 | CCCCCCCCCCCC(O)C#CC(O)C1CCCC1 (centres unmarked) [Compound 10, 1-Cyclopentylpentadec-2-yne-1,4-diol] |  | 4 (HCT116)
12 | CCCCCCCCCCCC(O)C#CC(O)C1CCCCC1 (centres unmarked) [Compound 11, 1-Cyclohexylpentadec-2-yne-1,4-diol] |  | 4 (HCT116)
13 | C=CC(O)C#CCC(O)CCCCCCCCCC (centres unmarked) [Compound 12, Heptadec-1-en-4-yne-3,7-diol] | 10 (VERO) | 1.6 (HCT116)
14 | C=C=CC(O)C#CCC(O)CCCCCCCCCC (centres unmarked) [Compound 13, Octadeca-1,2-dien-5-yne-4,8-diol] |  | 20 (HCT116)
15 | C#CC(O)C#CCC(O)CCCCCCCCCC (centres unmarked) [Compound 14, Heptadeca-1,4-diyne-3,7-diol] | 290 (VERO) | 3 (HCT116)
16 | CCCCCCCCCCC(O)CC#CC(O)c1ccccc1 (centres unmarked) [Compound 15, 1-Phenylpentadec-2-yne-1,5-diol] | 30 (VERO) | 16 (HCT116)
17 | CCCCCCCCCCC(O)CC#CC(O)CC (centres unmarked) [Compound 16, Heptadec-4-yne-3,7-diol] | 15 (VERO) | 10 (HCT116)
18 | CCCCCCCCCCC(O)CC#CC(O)C1CC1 (centres unmarked) [Compound 17, 1-Cyclopropylpentadec-2-yne-1,5-diol] | 74 (VERO) | 67 (HCT116)
19 | C=CC(O)C#CCCCCCCCCCCCC (centres unmarked) [Compound 18, Heptadec-1-en-4-yn-3-ol] | 0.4 (VERO) | < 0.1 (HCT116)
20 | C=C=CC(O)C#CCCCCCCCCCCCC (centres unmarked) [Compound 19, Octadeca-1,2-dien-5-yn-4-ol] |  | 1.1 (HCT116)
21 | C#CC(O)C#CCCCCCCCCCCCC (centres unmarked) [Compound 20, Heptadeca-1,4-diyn-3-ol] | 0.7 (VERO) | < 0.1 (HCT116)
22 | CCCCCCCCCCCCC#CC(O)c1ccccc1 (centres unmarked) [Compound 21, 1-Phenylpentadec-2-yn-1-ol] | 42 (VERO) | 41 (HCT116)
23 | CCCCCCCCCCCCC#CC(O)CC (centres unmarked) [Compound 22, Heptadec-4-yn-3-ol] | > 20 (VERO) | 5 (HCT116)
24 | CCCCCCCCCCCCC#CC(O)C1CC1 (centres unmarked) [Compound 23, 1-Cyclopropylpentadec-2-yn-1-ol] | < 16 (VERO) | < 6 (HCT116)
25 | CCCCCCCCCCCCC#CC(O)C(C)(C)C (centres unmarked) [Compound 24, 2,2-Dimethylheptadec-4-yn-3-ol] |  | < 6 (HCT116)
26 | CCCCCCCCCCCCC#CC(O)C(CC)CC (centres unmarked) [Compound 25, 3-Ethyloctadec-5-yn-4-ol] |  | < 12 (HCT116)
27 | CCCCCCCCCCCCC#CC(O)C1CCCC1 (centres unmarked) [Compound 26, 1-Cyclopentylpentadec-2-yn-1-ol] |  | < 10 (HCT116)
28 | CCCCCCCCCCCCC#CC(O)C1CCCCC1 (centres unmarked) [Compound 27, 1-Cyclohexylpentadec-2-yn-1-ol] |  | 6 (HCT116)

From patent EP4613730A1, “LIPIDIC ALKYNYLCARBINOLS WITH ANTI-BACTERIAL AND ANTI-TUBERCULOSIS ACTIVITY” (priority 2024, dated 2025)
